Anti-infective test results gathered from many reports (values: NIAID ChemDB through PubChem).

All rows: growth or infection tests; species: Herpes simplex virus 1

Blank or dashed fields: not listed here. ECn: concentration that inhibits the pathogen or its effect by n%. Neighbouring rows are from separate reports.

SMILES,read-out,cells,strain or isolate,method,value
Cc1cc(=O)oc2cc(O)c(O)cc12,EC50,HEL,KOS,plaque count,16 µg/mL
O=c1[nH]c(=O)n([C@@H]2O[C@H](CO)[C@@H](O)[C@@H]2O)cc1/C=C/Cl,EC50,HEL,-,plaque count,0.086 µM
Nc1nc2c(ncn2OCC/C=C\P(=O)(O)O)c(=O)[nH]1,EC50,MRC-5,SC16,cytopathic effect,>300 µM
O=C(CCCl)NN1CC[N+]2(CC1)CC[N+]1(CCN(NC(=O)CCCl)CC1)CC2,EC50,GMK,-,cytopathic effect,66.1 µg/mL
Nc1ncnc2c1ncn2C[C@H](O)CO,EC50,PRK,KOS,cytopathic effect,>400 µg/mL
Nc1ncnc2c1c(Br)cn2[C@@H]1O[C@H](CO)[C@@H](O)[C@H]1O,EC50,PRK,-,cytopathic effect,0.07 µg/mL
Nc1nc(N)c2ncn(CCOCP(=O)(O)O)c2n1,EC50,HEL,ACV-resistant,cytopathic effect,5.7 µg/mL
N=C(N)c1cn([C@H]2C[C@H](O)[C@@H](CO)O2)c2ncnc(N)c12,EC50,VERO,KOS,plaque count,6 µM
Nc1ccn(C[C@@H](CO)OCP(=O)(O)O)c(=O)n1,EC50,HEL,KOS,cytopathic effect,0.15 µg/mL
C[C@H]1O[C@@H](O[C@H]2CC[C@@]3(C)[C@H](CC[C@@H]4[C@@H]3CC[C@]3(C)[C@@H](C5=CC(=O)OC5)C(O)C[C@]43O)C2)C[C@H](O)[C@@H]1O[C@@H]1O[C@H](CO)[C@@H](O)[C@H](O)[C@H]1O,EC50,VERO,KOS,plaque count,0.83 µM
O=c1[nH]cnc(N2CC[N+]3(CC2)CC[N+]2(CCN(c4nc[nH]c(=O)c4[N+](=O)[O-])CC2)CC3)c1[N+](=O)[O-],EC50,GMK,-,cytopathic effect,1.08 µg/mL
O=c1c2cnn(-c3ccccc3)c2nc2n1N=C(c1ccc(Br)cc1)CN2c1ccccc1,EC50,VERO,-,plaque count,20 µg/mL
NC(=O)c1cn([C@H]2C[C@@H](O)[C@@H](CO)O2)c2ncnc(N)c12,EC50,PRK,KOS,cytopathic effect,70 µg/mL
Nc1ncnc2c1ncn2OCC/C=C/P(=O)(O)O,EC50,MRC-5,SC16,cytopathic effect,>300 µM
O=C(O)CP(=O)(O)O,EC50,HEL,ACV-resistant,cytopathic effect,10 µg/mL
Nc1ncnc2c1ncn2C[C@@H](O)[C@H](O)C(=O)O,EC50,PRK,-,cytopathic effect,>400 µg/mL
Nc1ncnc2c1ccn2[C@@H]1O[C@H](CO)[C@H](O)[C@H]1O,EC50,PRK,F,cytopathic effect,0.2 µg/mL
CC(=O)O[C@H]1C[C@H](O[C@H]2[C@@H](O)C[C@H](O[C@H]3[C@@H](O)C[C@H](O[C@H]4CC[C@@]5(C)[C@H](CC[C@@H]6[C@@H]5CC[C@]5(C)[C@@H](C7=CC(=O)OC7)CC[C@]65O)C4)O[C@@H]3C)O[C@@H]2C)OC(C)[C@H]1O[C@@H]1O[C@H](CO)[C@@H](O)[C@H](O)[C@H]1O,EC50,VERO,KOS,plaque count,0.54 µM
Nc1ncnc2c1ncn2[C@@H]1C=C(CO)[C@@H](O)[C@H]1O,MIC,-,KOS,-,7 µg/mL
Nc1ncnc2c1ccn2[C@@H]1O[C@H](CO)[C@@H](O)[C@@H]1O,EC50,PRK,KOS,cytopathic effect,125 µg/mL
Nc1ncnc2c1ncn2CCOCP(=O)(O)O,MIC,-,TK-,-,7 µg/mL
O=C(O)CP(=O)(O)O,EC50,HEL,KOS GCV-resistant,cytopathic effect,16 µg/mL
Cc1cc(O)c2c(c1O)C(=O)c1cccc(O)c1C2=O,EC50,HeLa,KOS,cytopathic effect,>200 µg/mL
O=c1c2cnn(-c3ccccc3)c2nc(Nc2ccccc2)n1/N=C/c1ccc(Cl)cc1,EC50,VERO,-,plaque count,41 µg/mL
COC(=O)[C@@H]1[C@H]2C[C@H]3c4[nH]c5ccccc5c4CCN3C[C@@H]2CC[C@@H]1O,EC50,HeLa,KOS,cytopathic effect,>200 µg/mL
CC(C)=CCc1c(O)cc(O)c2c1O[C@H](c1ccc(O)cc1O)CC2=O,EC50,VERO,15577,cytopathic effect,1.6 µg/mL
O=c1c2cnn(-c3ccccc3)c2nc2n(-c3ccccc3)c(=S)[nH]n12,EC50,VERO,-,plaque count,66 µg/mL
C[C@H]1O[C@@H](O[C@H]2[C@@H](O)C[C@H](O[C@H]3CC[C@@]4(C)[C@H](CC[C@@H]5[C@@H]4CC[C@]4(C)[C@@H](C6=CC(=O)OC6)CC[C@]54O)C3)O[C@@H]2C)C[C@H](O)[C@@H]1O,EC50,VERO,29R,plaque count,0.1 µM
OC(CCl)CN1CC[N+]2(CC1)CC[N+]1(CCN(CC(O)CCl)CC1)CC2,EC50,GMK,-,cytopathic effect,62.47 µg/mL
O=c1[nH]c(=O)n([C@@H]2O[C@H](CO)[C@@H](O)[C@@H]2O)cc1/C=C/I,EC50,HEL,-,plaque count,0.119 µM
O=C(C=Cc1ccc(O)c(O)c1)O[C@@H]1C[C@](O)(C(=O)O)C[C@@H](O)[C@H]1O,EC50,VERO,-,cytopathic effect,>512 µg/mL
Nc1ncnc2c1ncn2OC(/C=C/P(=O)(O)O)CO,EC50,MRC-5,SC16,cytopathic effect,>300 µM
CC(=O)O[C@H]1CC[C@@]2(C)C(CC[C@]3(C)C2CC=C2C4[C@@H](C)[C@H](C)CC[C@]4(C)CC[C@]23C)C1(C)C,EC50,VERO,15577,cytopathic effect,>100 µg/mL
O=c1c2cnn(-c3ccccc3)c2nc(Nc2ccccc2)n1/N=C/c1ccc(Br)cc1,EC50,VERO,-,plaque count,30 µg/mL
Cc1cc(O)c2c(c1)C(=O)c1cccc(O)c1C2=O,EC50,VERO,-,cytopathic effect,>25 µg/mL
NCC(O)c1ccc(O)c(O)c1,EC50,HEL,KOS,plaque count,49 µg/mL
C[C@H]1O[C@@H](O[C@H]2[C@@H](O)C[C@H](O[C@H]3CC[C@@]4(C)[C@H](CC[C@@H]5[C@@H]4C[C@@H](O)[C@]4(C)[C@@H](C6=CC(=O)OC6)CC[C@]54O)C3)O[C@@H]2C)C[C@H](O)[C@@H]1O,EC50,VERO,KOS,plaque count,0.27 µM
C=Cc1cn([C@H]2C[C@H](O)[C@@H](CO)O2)c(=O)[nH]c1=O,EC50,HEL,-,plaque count,0.43 µM
O=[N+]([O-])c1c(Cl)ncnc1N1CC[N+]2(CC1)CC[N+]1(CCN(c3ncnc(Cl)c3[N+](=O)[O-])CC1)CC2,EC50,GMK,-,cytopathic effect,0.9 µg/mL
CC1(C)Oc2cc3oc(-c4cc(O)cc(OC5OC[C@@H](O)[C@H](O)[C@H]5O)c4)cc3cc2CC1O,EC50,VERO,15577,cytopathic effect,75.4 µg/mL
N/C(=N/O)c1cn([C@H]2C[C@H](O)[C@@H](CO)O2)c2ncnc(N)c12,EC50,VERO,KOS,plaque count,60 µM
CC(C)(O)CCc1c(-c2ccc(O)cc2O)oc2c3c(cc(O)c2c1=O)OC(C)(C)C=C3,EC50,VERO,15577,cytopathic effect,>100 µg/mL
O=C(Oc1ccccc1)P(=O)(O)O,EC50,VERO,C42,plaque count,500 µM
Nc1ncnc2c1ncn2C[C@@H](CO)OCP(=O)(O)O,EC50,HEL,KOS PFA-resistant,cytopathic effect,0.065 µg/mL
O=C(Oc1ccc(Cl)c(Cl)c1)P(=O)(O)O,EC50,VERO,C42,plaque count,>500 µM
Nc1ncnc2c1ncn2C[C@@H](CO)OCP(=O)(O)O,EC50,HEL,ACV-resistant,cytopathic effect,0.11 µg/mL
Nc1ccccc1O[C@@H]1O[C@H](C(=O)O)[C@@H](O)[C@H](O)[C@H]1O,EC50,HeLa,KOS,cytopathic effect,>200 µg/mL
O=C(O)P(=O)(O)O,EC50,HEL,KOS PFA-resistant,cytopathic effect,127 µg/mL
NC(=O)c1csc([C@@H]2O[C@H](CO)[C@@H](O)[C@H]2O)n1,EC50,HeLa,KOS,cytopathic effect,130 µg/mL
C[C@H]1O[C@@H](O[C@H]2CC[C@@]3(C)[C@H](CC[C@@H]4[C@@H]3CC[C@]3(C)[C@@H](C5=CC(=O)OC5)CC[C@]43O)C2)C[C@H](O)[C@@H]1O,EC50,VERO,29R,plaque count,0.11 µM
Nc1nc2c(ncn2CCC(CO)CO)c(=O)[nH]1,EC50,HEL,PCV-resistant/A,cytopathic effect,>20 µg/mL
COc1cc(Cc2cnc(N)nc2N)cc(OC)c1OC,EC50,HeLa,KOS,cytopathic effect,>300 µg/mL
O=c1c2cnn(-c3ccccc3)c2nc(Nc2ccccc2)n1/N=C/c1ccc(F)cc1,EC50,VERO,-,plaque count,22 µg/mL
C/C=C/C=C/[C@@H]1O[C@](O)([C@H](OC)C(=O)NC/C=C/C=C(/C)[C@@H](OC)[C@@H](C)[C@@H]2O[C@H](/C=C/C=C/C=C(\C)C(=O)c3c(O)cc[nH]c3=O)[C@H](O)[C@@H]2O)[C@H](O)[C@H](O)C1(C)C,EC50,HeLa,KOS,cytopathic effect,>100 µg/mL
Nc1ncc2c(ncn2COC(CO)CO)n1,EC50,HEL,KOS PMEDAP-resistant,cytopathic effect,1.73 µg/mL
CC1CN(Cn2c(O)c(N=NC(N)=S)c3ccccc32)CCN1Cn1c(O)c(N=NC(N)=S)c2ccccc21,EC50,HeLa,KOS,cytopathic effect,>200 µg/mL
Nc1nccc2c1ncn2[C@@H]1O[C@H](CO)[C@@H](O)[C@H]1O,EC50,PRK,-,cytopathic effect,≥40 µg/mL
O=c1[nH]c(=O)n([C@@H]2O[C@H](CO)[C@@H](O)[C@H]2O)cc1/C=C/Br,EC50,HEL,-,plaque count,>917 µM
COC(=O)c1cc2cc3cc4cc(CC(=O)O)c(/C(O)=C/C(=O)c5ccccc5O)c(OC)c4c(OC)c3c(O)c2c(=O)o1,EC50,HeLa,KOS,cytopathic effect,>200 µg/mL
O=c1[nH]cccc1O,EC50,HEL,B2006 (TK-),plaque count,>200 µg/mL
C[C@H]1O[C@@H](O[C@H]2[C@@H](O)C[C@H](O[C@H]3[C@@H](O)C[C@H](O[C@H]4CC[C@@]5(C)[C@H](CC[C@@H]6[C@@H]5CC[C@]5(C)[C@@H](C7=CC(=O)OC7)CC[C@]65O)C4)O[C@@H]3C)O[C@@H]2C)C[C@H](O)[C@@H]1O,EC50,VERO,29R,plaque count,0.32 µM
CC1OC(n2ccc(NC(=O)c3ccc(NC(=O)C(C)(N)CO)cc3)nc2=O)CCC1OC1OC(C)C(N(C)C)C(O)C1O,EC50,HeLa,KOS,cytopathic effect,16 µM
COC(=O)c1cc(O)c(O)c(O)c1,EC50,HEL,B2006 (TK-),plaque count,6 µg/mL
COc1cc(O)c2c(=O)cc(-c3ccc(OC)c(-c4c(O)cc(O)c5c(=O)cc(-c6ccc(O)cc6)oc45)c3)oc2c1,EC50,VERO,HF,plaque count,0.76 µg/mL
Nc1ncnc2c1ncn2[C@@H]1O[C@H](CO)[C@@H](O)[C@@H]1O,EC50,HEL,KOS GCV-resistant,cytopathic effect,15 µg/mL
Nc1nc(N)c2ncn(CCOCP(=O)(O)O)c2n1,MIC,-,-,-,2 µg/mL

Repeating the final 6 entries:

SMILES	read-out	cells	strain or isolate	method	value
C[C@H]1O[C@@H](O[C@H]2[C@@H](O)C[C@H](O[C@H]3[C@@H](O)C[C@H](O[C@H]4CC[C@@]5(C)[C@H](CC[C@@H]6[C@@H]5CC[C@]5(C)[C@@H](C7=CC(=O)OC7)CC[C@]65O)C4)O[C@@H]3C)O[C@@H]2C)C[C@H](O)[C@@H]1O	EC50	VERO	29R	plaque count	0.32 µM
CC1OC(n2ccc(NC(=O)c3ccc(NC(=O)C(C)(N)CO)cc3)nc2=O)CCC1OC1OC(C)C(N(C)C)C(O)C1O	EC50	HeLa	KOS	cytopathic effect	16 µM
COC(=O)c1cc(O)c(O)c(O)c1	EC50	HEL	B2006 (TK-)	plaque count	6 µg/mL
COc1cc(O)c2c(=O)cc(-c3ccc(OC)c(-c4c(O)cc(O)c5c(=O)cc(-c6ccc(O)cc6)oc45)c3)oc2c1	EC50	VERO	HF	plaque count	0.76 µg/mL
Nc1ncnc2c1ncn2[C@@H]1O[C@H](CO)[C@@H](O)[C@@H]1O	EC50	HEL	KOS GCV-resistant	cytopathic effect	15 µg/mL
Nc1nc(N)c2ncn(CCOCP(=O)(O)O)c2n1	MIC	-	-	-	2 µg/mL